Series [1] deals with His6-VraR (Staphylococcus aureus USA300 LAC) (UniProt Q2FX09). As to the kind of experiment: DNase I footprinting. The note with it: 6 uM VraR, 50 mM acetyl phosphate, 5 mM Mg2+, 10 mM Tris-HCl pH 7.5, 50 mM KCl, 1 mM DTT, 5 mM MgCl2, 0.05% NP-40, 2.5% glycerol, room temperature, 15 min, recombinant protein, residues 1-209, protein details: N-terminal His6 (pET28a), label: 5' FAM on reverse primer strand, probe letters rebuilt from the primers and the genome.

Amino acid sequences for entries named in this document (tags omitted). A change or cut given only in a name is not applied to a line headed by its entry.
UniProt Q2FX09: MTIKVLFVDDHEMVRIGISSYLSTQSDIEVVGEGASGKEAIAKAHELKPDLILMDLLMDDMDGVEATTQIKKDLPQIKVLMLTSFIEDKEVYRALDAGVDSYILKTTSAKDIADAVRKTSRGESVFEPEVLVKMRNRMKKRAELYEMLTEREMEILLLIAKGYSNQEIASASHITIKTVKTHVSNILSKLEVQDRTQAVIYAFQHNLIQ

Series [2] shares this target. The series can be described thus: EMSA. The note with it: 50 mM acetyl phosphate, 5 mM Mg2+, 10 mM Tris-HCl pH 7.5, 50 mM KCl, 1 mM DTT, 5 mM MgCl2, 0.05% NP-40, 2.5% glycerol, room temperature, 15 min, recombinant protein, residues 1-209, protein details: N-terminal His6 (pET28a), probe letters rebuilt from the primers and the genome. (In general: A gel shift assay detects complexes by their altered migration in electrophoresis.)

This note sets out measurements from PMC10032271.

On to “AACCTATATTACCTCCTTTGCTACTCTATGGTTATATTATAAATAACATTTTTATGTGTGACATCAACCTTAAGTATCAACTTTTTATCAGACATAGAACGTATGATTTACTAAGACTATTTATGTATAAAAGTTCTAAATAAATATATATTTATAGAGTCGCCTGGCAGTCATTTGGGAAATATAACATATATGATTAGAGAGGCATCTATCGCAAAAGAATGATAATGATAGAGGTATTGAGCATATAGATGAGTTTAAGTTCATCTTGAAAATAAAGGGTTATTTAGTCATAGATGTAGATGTATAGGAAATATTTGTATGTATTGTTCGATATGTATGAAATTTTC (double strand) [FAM-vraX promoter]”, for which, in series [1], the binding result is “binds”.

With “AACCTATATTACCTCCTTTGCTACTCTATGGTTATATTATAAATAACATTTTTATGTGTGACATCAACCTTAAGTATCAACTTTTTATCAGACATAGAACGTATGATTTACTAAGACTATTTATGTATAAAAGTTCTAAATAAATATATATTTATAGAGTCGCCTGGCAGTCATTTGGGAAATATAACATATATGATTAGAGAGGCATCTATCGCAAAAGAATGATAATGATAGAGGTATTGAGCATATAGATGAGTTTAAGTTCATCTTGAAAATAAAGGGTTATTTAGTCATAGATGTAGATGTATAGGAAATATTTGTATGTATTGTTCGATATGTATGAAATTTTC (double strand) [vraX-p]”, in series [2], the binding result is “binds”. In the case of “TATTACGCAAGTGTGCTGTATTCTAAAGTGCACTTGTGTTTTCTATTTTTTAATAAAACCTCAGCACATAATGAACAACTTTCTATTTTCTATATCACTTAAAACCATTTCCGAAATTAAACCTCAGCACATTCAAAGCCCCACTTTATTCTTAAAAATATTTTTTAACTCATATGTATTAAACCGCTTTCATTATAAAAAATATCTCTATATTTTATCTGTTTTTATTAATCGAAATAGCGTGATTTTGCGGTTTTAAGCCTTTTACTTCCTGAATAAATCTTTCAGCAAAATATTTATTTTATAAGTTGTAAAACTTACCTTTAAATTTAATTATAAATATAGATTTTAGTATTGCAATACATAATTCGTTATATTATGATGACTTTACAAATACATACAGGGGGTATTAAT (double strand) [FAM-spa promoter]”, the binding result in series [1] was “binds”. Turning to “TATTACGCAAGTGTGCTGTATTCTAAAGTGCACTTGTGTTTTCTATTTTTTAATAAAACCTCAGCACATAATGAACAACTTTCTATTTTCTATATCACTTAAAACCATTTCCGAAATTAAACCTCAGCACATTCAAAGCCCCACTTTATTCTTAAAAATATTTTTTAACTCATATGTATTAAACCGCTTTCATTATAAAAAATATCTCTATATTTTATCTGTTTTTATTAATCGAAATAGCGTGATTTTGCGGTTTTAAGCCTTTTACTTCCTGAATAAATCTTTCAGCAAAATATTTATTTTATAAGTTGTAAAACTTACCTTTAAATTTAATTATAAATATAGATTTTAGTATTGCAATACATAATTCGTTATATTATGATGACTTTACAAATACATACAGGGGGTATTAAT (double strand) [spa-p]”, the binding result in series [2] is listed as “binds”.
